Test results published in PubChem BioAssay AID624483 (NMMLSC, 2012).
The entries are a selection whose mix differs from that of the whole data set. The source made the active and inactive calls. Cut-off read from the data, not from the text of the source: active = fluorescence intensity above about 16000; inconclusive = no clear call, values can overlap the other calls; inactive = below that.

test: compound fluorescence in toxin protease inhibitor counterscreen, primary screen, artefact control for toxin protease inhibitor project, biochemical, multiplex microsphere, HTS (AID 624483); details: compound autofluorescence counterscreen, microsphere flow cytometry; hits give high values; note: test concentration not given here

Row | Structure (SMILES) | fluorescence intensity
1 | N#CCCN(C(=O)COC(=O)C(O)(c1ccccc1)c1ccccc1)c1ccc(F)cc1 | active: 63600
2 | O=P1(Nc2ccc(Br)cn2)COc2ccccc2OC1 | active: 19500
3 | CCc1nc2c(n1)c1c(non1O)c1c2no[n+]1[O-] | active: 23000
